Results of unrelated studies side by side (data: NIAID ChemDB).

All rows: whole-cell or culture tests; species: HIV-1

Lines come from different laboratories, so protocols vary. ECn: concentration that inhibits the pathogen or its effect by n%. An empty or dashed field is not shown.

structure	read by	endpoint	mutations	cells	strain	value
COC(=O)C(C)(C)NP(=O)(OC[C@@H]1OC[C@H](n2cc(C)c(=O)[nH]c2=O)O1)Oc1cccc2ccccc12	RT activity	EC90	RT-M184V	PBMC	LAI	2.6 µM
CC1(C)OS(=O)(=O)C=C1NCc1ccccc1	cytopathic effect / MTT	EC50	-	MT-4	IIIB	>125 µg/mL
COc1ccc(S(=O)(=O)N(CC(C)C)C[C@@H](O)CCN(CC2CCCC2)S(=O)(=O)C2C(=O)CC(C)(C)S(=O)(=O)C2=O)cc1	p24	EC90	-	CEM	IIIB	1 µM
CCc1c(Cc2ccccc2C)n(COCC#Cc2ccc(NC(=O)CBr)cc2)c(=O)[nH]c1=O	MTT	EC50	Y181C	MT-4	IIIB	13 µM
CC1=C(N)C(C)(C)N(Cc2ccccc2)S1(=O)=O	cytopathic effect / MTT	EC50	-	MT-4	IIIB	>125 µg/mL
C=CCO/N=C/c1cc(NC(=S)c2ccoc2C)ccc1Cl	cytopathic effect / XTT	EC50	RT-L74V	CEM + CEM-SS	NL4-3	0.01 µM
COC(=O)[C@H](Cc1ccccc1)NP(=O)(OC[C@@H]1OC[C@H](n2cc(C)c(=O)[nH]c2=O)O1)Oc1ccccc1	RT activity	EC90	RT-M184V	PBMC	LAI	8.4 µM
CCc1c(Cc2cc(C)cc(C)c2)n(COCC#Cc2ccc(N)cc2)c(=O)[nH]c1=O	MTT	EC50	Y181C	MT-4	IIIB	1.8 µM
Cc1cn([C@H]2CO[C@@H](CO[P@]3(=O)OCC[C@H](c4cccc(Cl)c4)O3)O2)c(=O)[nH]c1=O	RT activity	EC50	RT-M184V	PBMC	LAI	2 µM
Cc1occc1C(=S)Nc1ccc(Cl)c(C(=O)OC(C)C)c1	cytopathic effect / XTT	EC50	-	CEM + CEM-SS	RF	0.026 µM
CCc1c(Cc2ccccc2C)n(COC/C(Br)=C(\Br)c2ccccc2)c(=O)[nH]c1=O	MTT	EC50	WT	MT-4	IIIB	0.6 µM
COc1ccc(S(=O)(=O)N(CC(C)C)C[C@@H](O)CCN(CC2CCCC2)S(=O)(=O)CC2COCO2)cc1	p24	EC90	-	CEM	IIIB	1 µM
COC(=O)[C@H](C)NP(=O)(OC[C@@H]1OC[C@H](n2cc(C)c(=O)[nH]c2=O)O1)Oc1ccccc1	RT activity	EC50	RT-M184V	PBMC	LAI	0.2 µM
O=C(c1ccccc1)N(CCc1ccccc1)C[C@H](O)CN(CC1CCCC1)S(=O)(=O)Cc1ncc[nH]1	p24	EC90	-	CEM	IIIB	1 µM
CCc1c(Cc2cc(C)cc(C)c2)n(COCC#CC#CCO[Si](c2ccccc2)(c2ccccc2)C(C)(C)C)c(=O)[nH]c1=O	MTT	EC50	WT	MT-4	IIIB	2 µM
CC=CCOc1cc(NC(=S)c2ccoc2C)ccc1OC	cytopathic effect / XTT	EC50	-	CEM + CEM-SS	RF	0.045 µM
COC(=O)[C@H](C)NP(=O)(OC[C@@H]1OC[C@H](n2cc(C)c(=O)[nH]c2=O)O1)Oc1ccc(Cl)cc1Cl	RT activity	EC50	RT-M184V	PBMC	LAI	0.85 µM
C=CCOc1cc(NC(=S)c2ccoc2C)ccc1OC	cytopathic effect / XTT	EC50	-	CEM + CEM-SS	IIIB	0.3 µM
Cc1cn([C@H]2CO[C@@H](COP(=O)(N[C@@H](C)C(=O)OCc3ccccc3)Oc3ccccc3)O2)c(=O)[nH]c1=O	RT activity	EC50	RT-M184V	PBMC	LAI	1.08 µM
CCc1c(Cc2cc(C)cc(C)c2)n(COCC#Cc2ccccc2[N+](=O)[O-])c(=O)[nH]c1=O	MTT	EC50	EFV-resistant (K103R V179D P225H)	MT-4	IIIB	>10 µM
CC1=C(C(=O)Nc2ccc(Cl)c(C(=O)OC(C)C)c2)SCCO1	cytopathic effect / XTT	EC50	-	CEM + CEM-SS	NL4-3	0.6 µM
O=C(N[C@@H](Cc1ccccc1)C(=O)C(F)(F)CN(Cc1ccccc1)S(=O)(=O)c1ccccc1)OC1COCOC1	p24	EC50	-	CEM	IIIB	<1 µM
Cc1cn([C@H]2CO[C@@H](CO[P@@]3(=O)OCC[C@@H](c4cccc(Cl)c4)O3)O2)c(=O)[nH]c1=O	RT activity	EC50	RT-M184V	PBMC	LAI	1.8 µM
CCc1c(Cc2cc(C)cc(C)c2)n(COCc2ccc(C#CCO)cc2)c(=O)[nH]c1=O	MTT	EC50	Y181C	MT-4	IIIB	0.07 µM
CC(C)CN(C(=O)C(=O)C(=O)C(Cc1ccccc1)NC(=O)OC(C)(C)C)S(=O)(=O)c1ccccc1	p24	EC50	-	CEM	IIIB	<1 µM
Cc1c(-c2c([C@H](OC(C)(C)C)C(=O)O)cnc3ccccc23)cc(F)c2c1CCCO2	-	EC50	-	PBMC	-	0.021 µM
CC1(C)C(N)=C(c2ccccc2)S(=O)(=O)N1Cc1cccc(Cl)c1	cytopathic effect / MTT	EC50	-	MT-4	IIIB	>125 µg/mL
COc1ccc(S(=O)(=O)N(CC(O)CN2CC(c3ccccc3)c3ccccc3C2=O)CC2CCCC2)cc1	p24	EC90	-	CEM	IIIB	1 µM
Cc1occc1C(=S)Nc1ccc(Cl)c(/C=N/OC(C)(C)C)c1	cytopathic effect / XTT	EC50	-	CEM + CEM-SS	NL4-3	0.08 µM
CC1(C)C(N)=CS(=O)(=O)N1Cc1ccc(Cl)cc1	cytopathic effect / MTT	EC50	-	MT-4	IIIB	>125 µg/mL
Cn1cc(C(=O)O)c(=O)c2cc(F)c(N3CC=C(c4ccccc4)CC3)c(C(F)(F)F)c21	p24	EC50	-	PBMC	IIIB	0.027 µM
Cc1occc1C(=S)Nc1ccc(Cl)c(C(=O)OCC2CC2)c1	cytopathic effect / XTT	EC50	RT-D67N K70R Y181C T215Y K219Q	CEM + CEM-SS	4XAZT/Y181C (RT D67N K70R Y181C T215Y K219Q)	0.11 µM
CCn1cc(C(=O)O)c(=O)c2cc(F)c(N3CCN(c4ccccc4OC)CC3)c(OC(F)F)c21	cytopathic effect / MTT	EC50	-	MT-4	-	0.64 µM
COC(=O)[C@@H](NP(=O)(OC[C@@H]1OC[C@H](n2cc(C)c(=O)[nH]c2=O)O1)Oc1ccccc1)C(C)C	RT activity	EC50	RT-M184V	PBMC	LAI	9.6 µM
CC(C)O/N=C/c1cc(NC(=S)OC(C)C)ccc1Cl	cytopathic effect / XTT	EC50	-	CEM + CEM-SS	RF	0.013 µM

Repeating the final 4 entries:

| structure | read by | endpoint | mutations | cells | strain | value |
|---|---|---|---|---|---|---|
| Cc1occc1C(=S)Nc1ccc(Cl)c(C(=O)OCC2CC2)c1 | cytopathic effect / XTT | EC50 | RT-D67N K70R Y181C T215Y K219Q | CEM + CEM-SS | 4XAZT/Y181C (RT D67N K70R Y181C T215Y K219Q) | 0.11 µM |
| CCn1cc(C(=O)O)c(=O)c2cc(F)c(N3CCN(c4ccccc4OC)CC3)c(OC(F)F)c21 | cytopathic effect / MTT | EC50 | - | MT-4 | - | 0.64 µM |
| COC(=O)[C@@H](NP(=O)(OC[C@@H]1OC[C@H](n2cc(C)c(=O)[nH]c2=O)O1)Oc1ccccc1)C(C)C | RT activity | EC50 | RT-M184V | PBMC | LAI | 9.6 µM |
| CC(C)O/N=C/c1cc(NC(=S)OC(C)C)ccc1Cl | cytopathic effect / XTT | EC50 | - | CEM + CEM-SS | RF | 0.013 µM |